Source: ChEMBL document CHEMBL5505957 (Eur J Med Chem, 2024)

Protein sequences, listed by entry. Tags and fused reporters are not part of them.
Protease (Human immunodeficiency virus 1), Q9YQ12, UniProt Q9YQ12, entry or part of it V82A: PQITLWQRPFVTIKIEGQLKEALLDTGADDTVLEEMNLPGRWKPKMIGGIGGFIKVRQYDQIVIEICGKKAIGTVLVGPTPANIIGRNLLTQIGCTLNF
Protease (Human immunodeficiency virus 1), Q9YQ12, UniProt Q9YQ12, entry or part of it V82F: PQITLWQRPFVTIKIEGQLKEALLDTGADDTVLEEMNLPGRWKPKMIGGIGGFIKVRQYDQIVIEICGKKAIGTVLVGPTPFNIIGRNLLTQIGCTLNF
Protease (Human immunodeficiency virus 1), Q9YQ12, UniProt Q9YQ12, entry or part of it G48V: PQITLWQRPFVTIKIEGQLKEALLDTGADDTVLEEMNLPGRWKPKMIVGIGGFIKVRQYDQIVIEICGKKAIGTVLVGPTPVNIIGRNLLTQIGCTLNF

How the values were obtained:
Details in all cases: dose 100.0 nM
[1] = tested on: Protease (Human immunodeficiency virus 1), Q9YQ12 [V82A]
[2] = tested on: Protease (Human immunodeficiency virus 1), Q9YQ12 [V82F]
[3] = tested on: Protease (Human immunodeficiency virus 1), Q9YQ12 [G48V]

Measured: inhibition

COC(=O)[C@@H](NC(=O)OCc1cn([C@@H](Cc2ccccc2)[C@H](O)CN(CC(C)C)S(=O)(=O)c2ccc(OC)cc2)nn1)c1ccccc1
> 50%: [1] | [2] | [3]

COc1ccc(S(=O)(=O)N(CC(C)C)C[C@@H](O)[C@H](Cc2ccccc2)n2cc(CNC(=O)c3ccncc3)nn2)cc1
> 50%: [1] | [2] | [3]
